Data as given in PubChem BioAssay AID1259414 (Drosophila RNAi Screening Center, 2018).
Aim: 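Genome-wide screen for host control of endosymbiont load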 (primary screen). Cells: Drosophila JW18 cells infected with Wolbachia. Knock-down reagent: long dsRNA against Drosophila genes, 0.25 µg dsRNA per well of a 384-well plate. Duration: 5 days. Conditions: cells persistently infected with Wolbachia before knock-down; no added drug. Read-out: 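Automated imaging of bacterial rRNA staining divided by host cell count, reported as plate-normalised robust z-score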. Scale: Wolbachia per cell robust z: higher = more Wolbachia per host cell than the plate typical. Rule for the call: 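Active if absolute robust z reaches 1.5 in two or more of three replicates, leaving out multi- or no-target dsRNAs, genes unexpressed in JW18 and A1 wells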.
In all, the deposit lists about 24,000 reagents; below is an unselected part of those with a known target gene and a result. Of all reagents, about 1,210 (5%) were called active. 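Inactive calls also include excluded dsRNAs with several or no targets, genes unexpressed in JW18, and well A1, regardless of score.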 Reagents against one gene are numbered here. Names joined by + are all predicted targets of the reagent.

no.	Target gene	dsRNA no.	Wolbachia per cell robust z, rep 1	Wolbachia per cell robust z, rep 2	Wolbachia per cell robust z, rep 3	outcome
1	mRpL47	1	1.18	-0.318	-0.764	inactive
2	trr	1	-0.147	0.199	-1.42	inactive
3	trr	2	0.792	1.65	0.204	inactive
4	CG11367	1	0.222	1.36	0.313	inactive
5	Sara	1	-1.08	-0.907	-1.14	inactive
6	peng	1	-1.89	-0.546	-1.01	inactive
7	peng	2	-0.838	-1.75	-2	active
8	Or85a	1	-3.86	0.202	1.12	inactive
9	Use1	1	-3.89	-4.54	-0.474	active
10	Use1	2	0.354	2.23	-6.02	inactive
11	CG15631	1	-0.205	-0.792	-0.0713	inactive
12	Apl	1	1.27	0.495	-0.431	inactive
13	CG7992	1	0.916	0.814	0.776	inactive
14	Or59a	1	-3.62	0.363	-5.77	inactive
15	CG30288	1	1.1	-1.84	0.657	inactive
16	CG30288	2	1.05	0.458	-0.411	inactive
17	CG31861	1	-0.549	-0.036	-1.07	inactive
18	CG31861	2	1.13	-0.453	-0.53	inactive
19	CG18540	1	-0.797	-0.986	-2.21	inactive
20	CG18540	2	-1.03	0.552	-1.93	inactive
21	so	1	0.246	-1.27	-0.222	inactive
22	Gr2a	1	-1.75	0.44	0.522	inactive
23	mael	1	-0.0839	-2.93	-1.08	inactive
24	CG3942	1	-0.125	0.912	-4.01	inactive
25	CG3942	2	-0.361	-1.93	-0.525	inactive
26	clos	1	1.06	0.0953	-1.47	inactive
27	clos	2	0.0362	-0.554	0.551	inactive
28	clos	3	1.62	-0.221	1.29	inactive
29	clos	4	-0.0679	-0.634	-1.09	inactive
30	clos	5	0.532	-1.37	-1.28	inactive
31	Ski6	1	-5	-0.0109	-0.791	inactive
32	pds5	1	0.893	2.19	0.967	inactive
33	Gcat	1	0.729	-0.612	-0.351	inactive
34	Gcat	2	-2.2	0.802	-0.806	inactive
35	Dref	1	0.677	0.894	0.281	inactive
36	CG3491	1	0.363	0.117	-0.218	inactive
37	CG4783	1	1.14	-0.653	0.917	inactive
38	Osi2	1	-0.977	-0.0473	-0.185	inactive
39	Osi2	2	0.354	-0.621	-0.382	inactive
40	Pex10	1	0.218	0.42	-0.51	inactive
41	Pex10	2	-0.832	-0.469	-0.15	inactive
42	Fpgs2	1	0	-0.135	-0.123	inactive
43	CG34225	1	-0.373	0.35	-1.32	inactive
44	CG13933	1	-0.269	0.0941	0.491	inactive
45	CG42807	1	-0.0927	0.00796	0.793	inactive
46	tap	1	-1.8	-3.73	-0.207	inactive
47	CG32095	1	-1.96	0.39	-0.408	inactive
48	Cyp28d2	1	0.0921	-0.283	1.19	inactive
49	Cyp28d2	2	0.993	0.23	0.657	inactive
50	CG11601	1	0.683	0.561	-0.2	inactive
51	CR40801	1	0.611	-0.607	-0.167	inactive
52	Boh2	1	-0.369	-0.838	-0.191	inactive
53	Or83a + CG1172	1	0.691	0.238	-0.0932	inactive
54	CG9578	1	0.556	0.239	-0.714	inactive
55	CG9578	2	0.00425	0.585	1.49	inactive
56	Aldh	1	-0.532	-0.0652	-0.44	inactive
57	CG9396	1	-0.0915	-1.79	-0.739	inactive
58	CG9396	2	0.13	-0.127	0.316	inactive
59	ind	1	0.02	0.172	0.818	inactive
60	Npc2c	1	-1.5	-0.196	0.284	inactive
61	Npc2c	2	0.504	-2.05	-0.568	inactive
62	CG32026	1	0.155	0.45	-1.02	inactive
63	CG32026	2	0.811	0.634	-0.204	inactive
64	Pkc53E	1	1.11	-0.676	0.851	inactive
65	Rcd5	1	0.934	-0.438	-1.36	inactive
66	Rcd5	2	0.379	0.519	0.904	inactive
67	EMC2A + EMC2B	1	-1.8	-0.795	-0.497	inactive
68	CG34310	1	-4.37	-0.9	-1.81	active

6 entries from above in another layout:
Target gene | dsRNA no. | Wolbachia per cell robust z, rep 1 | Wolbachia per cell robust z, rep 2 | Wolbachia per cell robust z, rep 3 | outcome
CG30288 | 1 | 1.1 | -1.84 | 0.657 | inactive
CG30288 | 2 | 1.05 | 0.458 | -0.411 | inactive
CG31861 | 1 | -0.549 | -0.036 | -1.07 | inactive
CG31861 | 2 | 1.13 | -0.453 | -0.53 | inactive
CG18540 | 1 | -0.797 | -0.986 | -2.21 | inactive
CG18540 | 2 | -1.03 | 0.552 | -1.93 | inactive
